Data source: PubChem BioAssay AID1259414 (Drosophila RNAi Screening Center, 2018)
Screen: 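Host factors increasing or decreasing Wolbachia levels in cultured fly cells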 (primary screen). Cells: Drosophila JW18 cells infected with Wolbachia. Reagents: long dsRNA against Drosophila genes, 0.25 µg dsRNA per well of a 384-well plate. Time to read-out: 5 days. Treatment: cells persistently infected with Wolbachia before knock-down; no added drug. Read-out: 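Imaged fluorescence in situ signal for Wolbachia 23S rRNA per DAPI-counted host cell, given as a robust z-score within each plate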. Direction: Wolbachia per cell robust z: higher = more Wolbachia per host cell than the plate typical. Active means: 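Hit when robust z is 1.5 or more, or -1.5 or less, in at least two of three replicates; excludes dsRNAs with several or no targets, genes not expressed in JW18 and well A1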.
The deposit covers about 24,000 reagents; this is an unselected part of those with a known target gene and a result. Over the whole deposit, about 1,210 (5%) were called active. 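Inactive calls also include excluded dsRNAs with several or no targets, genes unexpressed in JW18, and well A1, regardless of score.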 Unmarked entries are inactive. Reagents against one gene are numbered here.

qm #1 | Wolbachia per cell robust z, rep 1: -1.79; Wolbachia per cell robust z, rep 2: -0.525; Wolbachia per cell robust z, rep 3: -1.22
qm #2 | Wolbachia per cell robust z, rep 1: 0.0165; Wolbachia per cell robust z, rep 2: 0.547; Wolbachia per cell robust z, rep 3: 1.38
mAChR-C #1 | Wolbachia per cell robust z, rep 1: -0.39; Wolbachia per cell robust z, rep 2: -0.542; Wolbachia per cell robust z, rep 3: -0.277
mAChR-C #2 | Wolbachia per cell robust z, rep 1: -0.296; Wolbachia per cell robust z, rep 2: -1.19; Wolbachia per cell robust z, rep 3: -1.18
Ref2 | Wolbachia per cell robust z, rep 1: 0.0395; Wolbachia per cell robust z, rep 2: 1.38; Wolbachia per cell robust z, rep 3: 1.3
Nos | Wolbachia per cell robust z, rep 1: -0.316; Wolbachia per cell robust z, rep 2: -0.677; Wolbachia per cell robust z, rep 3: -0.313
SLO2 #1 | Wolbachia per cell robust z, rep 1: -1.34; Wolbachia per cell robust z, rep 2: -0.669; Wolbachia per cell robust z, rep 3: -2.74
SLO2 #2 | Wolbachia per cell robust z, rep 1: 0.676; Wolbachia per cell robust z, rep 2: 0.754; Wolbachia per cell robust z, rep 3: 0.492
SLO2 #3 | Wolbachia per cell robust z, rep 1: -0.305; Wolbachia per cell robust z, rep 2: -0.577; Wolbachia per cell robust z, rep 3: -0.711
SLO2 #4 | Wolbachia per cell robust z, rep 1: -0.0396; Wolbachia per cell robust z, rep 2: -0.288; Wolbachia per cell robust z, rep 3: -0.147
SLO2 #5 | Wolbachia per cell robust z, rep 1: -0.197; Wolbachia per cell robust z, rep 2: 1.04; Wolbachia per cell robust z, rep 3: 1.28
CG41242 | Wolbachia per cell robust z, rep 1: 0.461; Wolbachia per cell robust z, rep 2: -0.102; Wolbachia per cell robust z, rep 3: 0.477

Taken from above.
For “Wolbachia per cell robust z, rep 1”, CG41242 reads 0.461
Under “Wolbachia per cell robust z, rep 2”, SLO2 #2 reads 0.754
